Results of unrelated studies side by side (data: NIAID ChemDB).

All rows: tests in culture; species: HIV-1; read by: p24 / ELISA; measure: EC50

ECn is the concentration giving n% inhibition of infection, replication or growth. Lines come from different laboratories, so protocols vary. Blank or dashed fields: not listed here.

SMILES,changes,strain or isolate,cells,result
O=c1[nH]cnc2c1ncn2[C@H]1CC[C@@H](CO)O1,,HXB2,MT-2,0.5 µM
Cc1cc(C)c2c(N)c(C(N)=O)sc2n1,,,U1,1.473 µM
CC12CCC3C(CCC4CC(O)CCC43C)C1CC(F)C2=O,,IIIB,PBL(PHA-M) + PBL,8.8 µM
C=CCN(C(=O)CCc1ccccc1)C1CCN([C@H]2CN(C(=O)C3CCCC3)C[C@]2(O)c2ccccc2)CC1,,,PBMC,>0.1 µM
CCc1cc(NCc2cc3c(Cl)ccc(Cl)c3o2)c(=O)[nH]c1C,,IIIB,MT-4,<0.05 µM
COc1ccnc2[nH]cc(C(=O)C(=O)N3CCN(C(=O)c4ccccc4)C[C@H]3C)c12,,,MT-2,0.0025 µM
COC(=O)c1[nH]c2ccc(Cl)cc2c1Sc1ccccc1,,IIIB,MT-4,<1.5 µM
CC(=O)N1CCN(c2cncc3sc(C(N)=O)c(N)c23)CC1,,NL4-3,Jurkat cells,0.634 µM
C=CCN(C(=O)NCc1ccc(S(=O)ON(C)C)cc1)C1CCN([C@H]2CN(C(=O)C3CCCC3)C[C@]2(O)c2ccccc2)CC1,,,PBMC,<0.005 µM
CC(=O)CC(c1ccccc1)c1c(O)c2ccccc2oc1=O,,,ACH-2/HIV-1 + ACH2,10 µM
Cc1cc(C#N)cc(C)c1Oc1cc(Nc2ccc(C#N)cc2)c(N)cc1N,,RF,MT-2,73.3 µM
CNC(=O)c1[nH]c2ccc(Cl)cc2c1Sc1ccccc1,,IIIB,MT-4,<0.2 µM
Cc1cn([C@H]2C[C@H](N=[N+]=[N-])[C@@H](COC(=O)C3=CN(C)C=CC3)O2)c(=O)[nH]c1=O,,CD 451,PBL(PHA STIM.) + PBL,<0.1 µM
O=C(O)P(=O)(O)O,,,H9,<25 µg/mL
C=CCN(C(=O)OCc1ccc(S(=O)ON)cc1)C1CCN([C@H]2CN(C(=O)C3CCCC3)C[C@]2(O)c2ccccc2)CC1,,,PBMC,<0.005 µM
N#CC[C@H](C1CCCC1)n1cc(-c2ncnc3[nH]ccc23)cn1,L74V,,Primary T lymphocytes,0.1 µM
C=CCN(C(=O)OCc1ccc(S(=O)OC)cc1)C1CCN([C@H]2CN(C(=O)C3CCCC3)C[C@]2(O)c2ccccc2)CC1,,,PBMC,>0.1 µM
OCCc1ccc(O)c(O)c1,,NL4-3,PBMC,54.11 µM
C=CCN(C(=O)NCc1ccc(C(F)(F)F)cc1)C1CCN([C@H]2CN(C(=O)C3CCC(F)(F)CC3)C[C@]2(O)c2ccccc2)CC1,,,PBMC,<0.05 µM
COC(=O)[C@H](C)NP(=O)(OC[C@H]1O[C@@H](N2C(=O)NC(=O)C(C)(Br)C2OC)C[C@@H]1N=[N+]=[N-])Oc1ccc(Br)cc1,,IIIB,PBMC,0.005 µM
CCCCN1C(=O)[C@@H]([C@H](O)C2CCCCC2)NC(=O)C12CCN(Cc1ccc(Oc3ccc(C(=O)O)cc3)cc1)CC2,,BaL,PBMC,0.0007 µM
O=c1[nH]cnc2c1ncn2[C@H]1CC[C@@H](CO)O1,,HXB2D,PBMC,7.2 µM
CCCCCC/C=C\C/C=C\CCCCCCC(=O)O[C@H](COC(=O)CCCCCCCCCCCCCCC)COP(=O)([O-])OCC[N+](C)(C)C,,,H9,15 µM
NC(=O)c1sc2nccc(Nc3ccccc3)c2c1N,,,U1,<0.24 µM
Cc1cn([C@H]2C[C@H](N=[N+]=[N-])[C@@H](CO)O2)c(=O)[nH]c1=O,4xAZT,,Primary T lymphocytes,0.1 µM
C=C(C)[C@]12C[C@@H](COC(=O)c3ccccc3)[C@@]34O[C@]5(O[C@@H]1[C@@H]3[C@@H]1O[C@]1(CO)[C@@H](O)[C@@]1(O)[C@H]4[C@H]([C@H](C)[C@@H]1OC(=O)c1ccccc1)[C@H](C)CCCCCC[C@H]5O)O2,,JR-CSF,PBMC,0.0000205 µM
Cc1cn([C@H]2C[C@H](N=[N+]=[N-])[C@@H](CO)O2)c(=O)[nH]c1=O,,NL4-3,MT-4,0.0006 µg/mL
COc1cc(-c2cc(=O)c3c(O)c(OC)c(OC)cc3o2)c(O)cc1O,,IIIB,H9,17.3 µg/mL
Nc1ccn([C@H]2C=C(F)[C@@H](CO)O2)c(=O)n1,,IIIB,H9,1 µg/mL
CCCCCCCCCCCCCCCCCCCCCCC(=O)O[C@@H]1[C@@H](C)[C@@]2(O)[C@@H](C=C(COC(C)=O)C[C@]3(O)C(=O)C(C)=C[C@@H]23)[C@@H]2C(C)(C)[C@]12O,gp41 (36G) fusion inhibitor resistant (V38A N42T),NL4-3,C8166,6.915 µM
C[C@H]1[C@H](O)[C@@H](C)/C=C/C=C/C=C/C=C/C=C/C=C/C=C/[C@H](O[C@@H]2O[C@H](C)[C@@H](O)[C@H](N)[C@@H]2O)C[C@@H]2O[C@](O)(C[C@@H](O)C[C@@H](O)CC[C@H](O)[C@@H](O)C[C@@H](O)CC(=O)O[C@H]1C)C[C@H](O)[C@H]2C(=O)O,,,H9,<5 µg/mL
CCCCCCNC(=O)OCCCCCCNC(=O)OC1CCN(C(=O)Oc2ccc(Oc3ccccc3)cc2)CC1,,IIIB,C8166,2.03 µM
Cc1cn([C@H]2C[C@H](N=[N+]=[N-])[C@@H](CO)O2)c(=O)[nH]c1=O,,IIIB,MT-4,<0.025 µM
NC(=O)c1[nH]c2ccc(Cl)cc2c1S(=O)(=O)c1ccccc1,,IIIB,MT-4,<0.003 µM
CC(=O)c1cc(NCc2nc3c(Cl)ccc(Cl)c3o2)c(=O)[nH]c1C,,IIIB,MT-4,<0.1 µM
Cc1ccc(S(=O)(=O)N(CC(C)C)C[C@@H](O)[C@H](Cc2ccccc2)NC(=O)O[C@H]2CO[C@H]3OCC[C@H]32)cc1,D437N,IIIB,MT-2,0.008 µM
NC(=O)c1cc2c(-c3ccc4c(c3)CCO4)cncc2s1,,BaL,PBMC,0.0488 µM
COC(=O)[C@H](C)NP(=O)(OC[C@H]1O[C@@H](N2C(=O)NC(=O)C(C)(Br)C2OC)C[C@@H]1N=[N+]=[N-])Oc1ccccc1,,IIIB,PBMC,0.035 µM
Cc1cn([C@H]2C[C@H](N=[N+]=[N-])[C@@H](CO)O2)c(=O)[nH]c1=O,,899A,MT-4,0.037 µM
CCCCCC/C=C\C/C=C\CCCCCCC(=O)O[C@H](COC(=O)CCCCCCCCCCCCCCC)COP(=O)([O-])O.[Na+],,,H9,42 µM
COC(=O)[C@H](Cc1c[nH]c2ccccc12)NP(=O)(OC[C@H]1O[C@@H](N2C(=O)NC(=O)C(C)(Br)C2OC)C[C@@H]1N=[N+]=[N-])Oc1ccccc1,,IIIB,PBMC,0.14 µM
C[C@H](Cn1cnc2c(N)ncnc21)OCP(=O)(O)O,,ZAM18,,0.53 µM
Cc1cn([C@H]2C[C@H](N=[N+]=[N-])[C@@H](CO)O2)c(=O)[nH]c1=O,,IIIB,HuT-78 + HUT 78,0.0016 µg/mL
NC(=O)c1[nH]c2ccc(Cl)cc2c1Sc1ccccc1,,IIIB,MT-4,<0.2 µM
CCCCCCCC(=O)O[C@]12C(C3C(OO)C(CO)=C[C@]4(O)C(=O)C(C)=CC4[C@@]3(O)[C@H](C)[C@H]1OC(=O)c1ccccc1)C2(C)C,,NL4-3,MT-4,<0.005 µM
O=C(C(=O)N1CCN(C(=O)c2ccccc2)CC1)c1c[nH]c2c(-n3ccnn3)ncc(F)c12,,,MT-2,0.0059 µM
C1CNCCNCCCN(CCCN2CCCNCCNCCCNCC2)CCNC1,,clinical isolate A012C AZT-resistant,MT-4,0.37 µM
O=S(Cc1[nH]c2ccc(Cl)cc2c1Sc1ccccc1)c1ccccc1,,IIIB,MT-4,<0.8 µM
CN(C)c1ccnc2sc(C(N)=O)c(N)c12,,,293T,0.53 µM
Nc1ncnc2c1ncn2[C@@H]1C[C@H](CO)[C@@H](F)C1,,IIIB,H9,10 µg/mL
C=C(C)[C@]12C[C@@H](COC(C)=O)[C@@]34OC5(O[C@@H]1[C@@H]3[C@@H]1O[C@]1(CO)[C@@H](O)[C@@]1(O)[C@H]4[C@H]([C@H](C)[C@@H]1OC(=O)c1ccccc1)[C@H](C)CC(OC(=O)c1ccccc1)C(OC(C)=O)C(OC(=O)c1ccccc1)CC[C@H]5O)O2,,NL4-3,MT-4,0.00025 µM
COC(=O)[C@H](Cc1c[nH]c2ccccc12)NP(=O)(OC[C@H]1O[C@@H](N2C(=O)NC(=O)C(C)(Br)C2OC)C[C@@H]1N=[N+]=[N-])Oc1ccc(Br)cc1,,IIIB,PBMC,0.34 µM
Cc1cn([C@H]2C[C@H](N=[N+]=[N-])[C@@H](CO)O2)c(=O)[nH]c1=O,RT-K65R,HxB2-MT 65 (RT-K65R,MT-2,0.003 µM
C=C(C)[C@]12C[C@@H](COC(C)=O)[C@@]34OC5(O[C@@H]1[C@@H]3[C@@H]1O[C@]1(CO)[C@@H](O)[C@@]1(O)[C@H]4[C@H]([C@H](C)[C@@H]1OC(=O)c1ccccc1)[C@H](C)CC(OC(=O)c1ccccc1)C(OC(=O)c1ccccc1)CCC[C@H]5O)O2,,NL4-3,MT-4,0.00016 µM
O=C(O)P(=O)(O)O,,IIIB,H9,5 µM
Cc1cn([C@H]2C[C@H](N=[N+]=[N-])[C@@H](CO)O2)c(=O)[nH]c1=O,,CNE8,TZM-bl,0.03073 µM
Nc1ccn([C@@H]2O[C@H](CO)C=C2F)c(=O)n1,,LAV,CEM,10.9 µg/mL
CCN(c1nc(F)ccc1NC(C)(C)C)C1CCN(C(=O)c2cc3cc(NC(=O)N4CCN(C)CC4)ccc3[nH]2)CC1,I401T R409K D437N,IIIB,MT-2,0.0261 µM
Cc1cn([C@H]2C[C@H](N=[N+]=[N-])[C@@H](CO)O2)c(=O)[nH]c1=O,,BaL,PBMC,0.018 µM
CCC(=O)c1ccc(F)c([C@H]2C[C@H]2NC(=O)Nc2ccc(Br)cn2)c1O,,,PBMC,0.006 µM
Nc1ccn([C@@H]2O[C@H](CO)C[C@@H]2F)c(=O)n1,,LAV,U-937,0.14 µg/mL
CC(C)(C)NC(=O)[C@@H]1CN(Cc2cccnc2)CCN1C[C@@H](O)C[C@@H](Cc1ccccc1)C(=O)N[C@H]1c2ccccc2C[C@H]1O,,BaL,PBMC,0.029 µM
CN(C)C(=O)c1[nH]c2ccccc2c1Sc1ccccc1,,IIIB,MT-4,>3 µM
N#Cc1ccc(-c2cncc3sc(C(N)=O)cc23)cc1F,,,U1,0.108 µM
Nc1nc(N)c2ncn([C@@H]3O[C@H](CO)[C@@H](F)[C@H]3O)c2n1,,IIIB,H9,10 µg/mL
C=C(C)[C@]12C[C@@H](COc3ccccc3)[C@@]34OC5(OC1[C@@H]3[C@@H]1O[C@]1(CO)[C@@H](O)[C@]1(O)[C@@H](Oc3ccccc3)[C@@H](C)[C@H]([C@H](C)CCCCC[C@@H]5O)[C@]14C)O2,,JR-CSF,PBMC,0.0000205 µM
COC(=O)[C@H](Cc1ccccc1)NP(=O)(OC[C@H]1O[C@@H](N2C(=O)NC(=O)C(C)(Br)C2OC)C[C@@H]1N=[N+]=[N-])Oc1ccccc1,,IIIB,PBMC,0.15 µM
Cc1cc(Cl)nc(C)c1C(=O)NCC[C@@H](C)N1CCC(N(Cc2ccsc2)C(=O)NCCCCC(=O)O)CC1,,,PBMC,0.125 µM
C=CCN(C(=O)NCc1ccc(C(F)(F)F)cc1)C1CCN([C@H]2CN(C(=O)c3ccco3)C[C@]2(O)c2ccccc2)CC1,,,PBMC,>0.1 µM
COC(=O)[C@H](C)NP(=O)(OC[C@H]1O[C@@H](n2cc(C)c(=O)[nH]c2=O)C[C@@H]1N=[N+]=[N-])Oc1ccc(Br)cc1,,IIIB,PBMC,0.006 µM
Cc1nnc(C(C)C)n1C1C[C@H]2CC[C@@H](C1)N2CC[C@H](NC(=O)C1CCC(F)(F)CC1)c1ccccc1,,,MT-2,0.017 µM
CCOP(=O)(COc1ccc(C[C@H](NC(=O)O[C@H]2CO[C@H]3OCC[C@H]32)[C@H](O)CN(CC(C)C)S(=O)(=O)c2ccc(OC)cc2)cc1)OCC,K112M K113E V128I M200I H219P I401T R409K D437N L441P R41K,IIIB,MT-2,0.01141 µM
COc1ccc(/C=C(\C#N)c2nc3ccccc3[nH]2)cc1O,,,H9,0.0686 µM
C=CCN(C(=O)OCc1ccc([N+](=O)[O-])cc1)C1CCN([C@H]2CN(C(=O)C3CCCC3)C[C@]2(O)c2ccccc2)CC1,,,PBMC,<0.05 µM

The last 5 rows once more:

SMILES	changes	strain or isolate	cells	result
COC(=O)[C@H](C)NP(=O)(OC[C@H]1O[C@@H](n2cc(C)c(=O)[nH]c2=O)C[C@@H]1N=[N+]=[N-])Oc1ccc(Br)cc1		IIIB	PBMC	0.006 µM
Cc1nnc(C(C)C)n1C1C[C@H]2CC[C@@H](C1)N2CC[C@H](NC(=O)C1CCC(F)(F)CC1)c1ccccc1			MT-2	0.017 µM
CCOP(=O)(COc1ccc(C[C@H](NC(=O)O[C@H]2CO[C@H]3OCC[C@H]32)[C@H](O)CN(CC(C)C)S(=O)(=O)c2ccc(OC)cc2)cc1)OCC	K112M K113E V128I M200I H219P I401T R409K D437N L441P R41K	IIIB	MT-2	0.01141 µM
COc1ccc(/C=C(\C#N)c2nc3ccccc3[nH]2)cc1O			H9	0.0686 µM
C=CCN(C(=O)OCc1ccc([N+](=O)[O-])cc1)C1CCN([C@H]2CN(C(=O)C3CCCC3)C[C@]2(O)c2ccccc2)CC1			PBMC	<0.05 µM